Test results published in the supplement of paper PMC9931576.
Human monoclonal antibodies against the spike receptor-binding domain (heavy:light variable regions). IC50 against pseudoviruses bearing the spike of naturally observed variants; lower = stronger; >10 µg/ml means not reached at the top dose. No active / inactive call. The stated detection limit is 0.0005 µg/ml; values near or below 0.001 µg/ml lie at the floor of the assay.

B1: BD55-6254 (protein)
chain 1: QLHLQESGPGLVKPSETLSLTCTVSGGSINTRGSYWGWIRQPPGKGLEWIGSIYYSGSTYSNPSLESRLTMSVDVSKNQFSLKLSSVIAADTAVYYCVRPFVRDYFSAHTHWFDPWGQGALVTVSS
chain 2: EIVLTQSPGTLSLSPGERATLSCRASQSVSDNCLVWYQQKPGQAPRLLIYGASSRATGIPERFSGRGSGTEFTLTINRLEPEDFAVYYCQQYGNSPETFGQGTKVEIK
B2: BD55-6241 (protein)
chain 1: EVQLVQSGAEVKKPGESLKISCKAYGYSFSTDWIAWVRQMPGKGLEWMGIIYPGDSETRYNPSFQGQVTISADESISTAYLQWSSLKASDTAIYYCARQTTHHWGFGGSYRYGFWGQGTLVTVSS
chain 2: QSVLTQPPSVSAAPGQRVTISCSGSGSNIGINYVSWYQQLPGTAPKLIIYDNHDRPSGIPDRFSGSKSGTSATLDITRLQTGDEANYYCATWDTNLSAVLFGGGTKLTVL
B3: BD55-6218 (protein)
chain 1: EVQLVETGGGLVKPGRSLRLSCSASGFSFGDYAMSWFRQAPGKGLEWVGFIRSAAYGATPEYAPSVRGRFALSRDDSKSIAYLQMDSLKTEDTAVYYCSREGRLPSYYYYGMDVWGQGTTVTVSS
chain 2: DIQLTQSPSSLSASVGDRVTITCRASQSISFYVNWYQQNPGKAPKFLIYAASTLQTGVPSRFSGSGSGTDFTLTISSLQPEDFATYYCQQSYSIPLTFGGGTKVEIK
B4: BD55-6229 (protein)
chain 1: QVQLQESGPGLVKPSETLSLTCTVSGVSVSSFYWSWLRQPPGKGLEWIGDIDNSGNTNYNPSLRSRVSISIDTSKNQFSLRLSSVTAADTAMYHCARYWHTSGYYWLDPWGQGTLVTVSS
chain 2: DIQMTQSPSSLSASVGDRVSLTCRASQTIGNYLNWYQQRPGKAPNLLIYAASTLQSGVPSRFSGSGSGADFTLTITSLQPEDFATYFCQQSYSTPPVTFGGGTKVE
B5: BD55-6233 (protein)
chain 1: QVQLQESGPGLVKPSETLPLTCSVSGASISTGGGHWGWIRQPPGKELEWIGSIYDGGRTYYNPSLKGRVTISVDTSRNQFSLKLSSVTAADTAVYYCARTAWFGELDDYWGQGTLVTVSS
chain 2: QSVLTQPPSASGTPGQRVSISCSGSSSNIGTNYVYWYQQFPGTAPKLLIYGSNRRPSGVPDRFSGSKSGTSASLAISGLRSEDEAEYYCAAWDDSLQVVFGGGTKLTVL
B6: BD55-1199 (protein)
chain 1: QLLLQESGPGLVKPSETLSLTCTVSGDSFSDSIYYWGWIRQPPGKGLEWLGTIYYYGSTYYNPSLKSRVSISVDTSKNRFSLNLNSVTAADTAVYYCAREMEQLGHYYGMDVWGQGTTVTVSS
chain 2: SYVLTQPPSVSVAPGKTARITCGGNNIGSKSVHWYQQKPGQAPVLVIFYDSDRPSGIPERFSGSNSGNTATLTISRVEAGDEADYYCQVCDSSRDHRVFGGGTKLTVL

The binders below were run against SARS-CoV-2 Omicron BA.1 spike pseudovirus (assay: pseudovirus neutralization IC50; higher = weaker neutralization).
Description: (§1)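 Single-round VSV luciferase pseudovirus mixed with antibody dilutions for 1 h and put on Huh-7 cells for about a day; IC50 from the dose curve.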

Binder	pseudovirus neutralization IC50
B1	> 10 µg/mL
B2	> 10 µg/mL
B3	> 10 µg/mL
B4	> 10 µg/mL
B5	> 10 µg/mL
B6	> 10 µg/mL

What follows are binders tested against SARS-CoV-2 Omicron BA.2 spike pseudovirus in the same assay as above.
Description: as §1

Binder	pseudovirus neutralization IC50
B1	> 10 µg/mL
B2	> 10 µg/mL
B3	> 10 µg/mL
B4	> 10 µg/mL
B5	> 10 µg/mL
B6	> 10 µg/mL

These binders were tested against SARS-CoV-2 Omicron BA.2.75 spike pseudovirus in the same assay as above.
Description: as §1

Binder	pseudovirus neutralization IC50
B1	> 10 µg/mL
B2	> 10 µg/mL
B3	> 10 µg/mL
B4	> 10 µg/mL
B5	> 10 µg/mL
B6	> 10 µg/mL

Each binder was assayed against SARS-CoV-2 Omicron BA.5 spike pseudovirus in the same assay as above.
Description: as §1

Binder	pseudovirus neutralization IC50
B1	> 10 µg/mL
B2	> 10 µg/mL
B3	> 10 µg/mL
B4	> 10 µg/mL
B5	> 10 µg/mL
B6	> 10 µg/mL

These binders were tested against SARS-CoV-2 Omicron BQ.1.1 spike pseudovirus in the same assay as above.
Description: as §1

Binder	pseudovirus neutralization IC50
B1	> 10 µg/mL
B2	> 10 µg/mL
B3	> 10 µg/mL
B4	> 10 µg/mL
B5	> 10 µg/mL
B6	> 10 µg/mL

Each binder was assayed against SARS-CoV-2 Omicron XBB spike pseudovirus in the same assay as above.
Description: as §1

Binder	pseudovirus neutralization IC50
B1	> 10 µg/mL
B2	> 10 µg/mL
B3	> 10 µg/mL
B4	> 10 µg/mL
B5	> 10 µg/mL
B6	> 10 µg/mL

The binders below were run against SARS-CoV-2 early D614G spike pseudovirus in the same assay as above.
Description: as §1

Binder	pseudovirus neutralization IC50
B1	> 10 µg/mL
B2	0.00492 µg/mL
B3	> 10 µg/mL
B4	0.507 µg/mL
B5	> 10 µg/mL
B6	1.79 µg/mL
